This experiment has as its target Sigma non-opioid intracellular receptor 1 (Cavia porcellus, UniProt Q60492). The experiment is described as follows: Displacement of [3H]-(+)-pnetazocin from sigma1 receptor in guinea pig brain membrane incubated for 150 mins by liquid scintillation counting method. The class given is cell membranes. (In general: Loss of bound radioactivity is the signal in a displacement assay; it reports binding, not function.)

Sequences of proteins named here, by UniProt entry; tags and fusion partners are left off.
UniProt Q60492, whole entry: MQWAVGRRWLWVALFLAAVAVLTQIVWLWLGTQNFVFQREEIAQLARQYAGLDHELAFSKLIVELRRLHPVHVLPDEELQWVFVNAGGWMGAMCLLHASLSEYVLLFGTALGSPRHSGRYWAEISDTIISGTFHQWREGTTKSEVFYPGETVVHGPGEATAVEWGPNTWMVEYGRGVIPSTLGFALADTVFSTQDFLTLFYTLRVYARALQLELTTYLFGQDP

This passage reports Ki results from ChEMBL document CHEMBL4765270, “Piperidine propionamide as a scaffold for potent sigma-1 receptor antagonists and mu opioid receptor agonists for treating neuropathic pain” (Eur J Med Chem, 2020).

What is called Ki is the equilibrium dissociation constant of an inhibitor or competing ligand from its target. A low value points to a stronger hold on the target. In turn, `CCC(=O)N(CCN1CCC(Cc2ccccc2)CC1)c1ccc(F)cc1` had a Ki of 4.1 nM.
